The assay has as its system Plasmodium falciparum. Briefly: Antimalarial activity in vitro; Not active.

Each structure is given as a SMILES string. Active and inactive are the calls of the source. No cut-off for these calls is given here.

For the compound `CCCCCCCCC1OOCCCOO1`, the NA entry is “inactive”.

Values taken from ChEMBL document CHEMBL1135896, “Synthesis and notable antimalarial activity of acyclic peroxides, L-(alkyldioxy)-L-(methyldioxy)cyclododecanes” (J Med Chem, 2002).
